Values quoted from earlier work, collected in PMC4335872, “Pharmacokinetic-Pharmacodynamic Analysis of Spiroindolone Analogs and KAE609 in a Murine Malaria Model” (Antimicrobial Agents and Chemotherapy, 2015).

Parameters: method as in PMID 24089407
Details: cited from earlier work

In the case of C[C@H]1[C@H](OC(=O)CCC(=O)O)O[C@@H]2O[C@@]3(C)CC[C@H]4[C@H](C)CC[C@@H]1[C@@]24OO3 [artesunate], the “PK-PD relationship (type of killing)” value is listed as “concentration-dependent killing”.
